Data taken from patent US20130164308A1, “Staphylococcus aureus specific antibodies and uses thereof” (RINAT NEUROSCIENCE, published 2013).

Target: S. aureus alpha-toxin (purified, Calbiochem cat. no. 616385) (Staphylococcus aureus, UniProt P09616 27-319)
Test: cell-based or functional assay

Row | Binder | REL* EC50 (rabbit erythrocyte lysis, 2 nM alpha-toxin)
1 | DF1.1 variant HCDR3-E5A (antibody, V domains shown) VH: QVQLVQSGAEVKKPGSSVKVSCKTSGGTFNNVAINWVRQAPGQGLEWMGGIIPGLDTPNYAQKFQGRVTITADKSTTSTYLELSSLRSDDTAVYYCAREMAVSGRWRPTEAFEIWGQGTMVTVSS VL: ETTLTQSPGTLSLSPGERATLSCRASQTISNNFVAWYQQKPGQAPRLLIYGASTRATGIPDRFSGSGSGTDFTLTISSLEPEDFAVYYCQQYGSSPYTFGQGTKVDIK | 0.3 nM
2 | DF1.1 variant HCDR3-G8R (antibody, V domains shown) VH: QVQLVQSGAEVKKPGSSVKVSCKTSGGTFNNVAINWVRQAPGQGLEWMGGIIPGLDTPNYAQKFQGRVTITADKSTTSTYLELSSLRSDDTAVYYCAREMEVSRRWRPTEAFEIWGQGTMVTVSS VL: ETTLTQSPGTLSLSPGERATLSCRASQTISNNFVAWYQQKPGQAPRLLIYGASTRATGIPDRFSGSGSGTDFTLTISSLEPEDFAVYYCQQYGSSPYTFGQGTKVDIK | 0.25 nM
